Data on 34 compounds can be found in PubChem BioAssay AID602314 (ICCB-Longwood Screening Facility, Harvard Medical School, 2012).

Each structure is given as a SMILES string. The list shows a part of the results, in another mix than the full data. Active and inactive are the calls of the source. Cut-off read from the data, not from the text of the source: active = inhibition above about 30% (passing the limit was not always enough); inactive = the rest.

The assay has as its system MgrA (MarR family transcriptional regulator), Staphylococcus aureus Newman. As to the kind of experiment: modulators of MgrA DNA binding – biochemical, S. aureus Newman, fluorescence polarization, primary screen (AID 602314).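 Note: 0% = protein plus DNA without compound and 100% = DNA alone without protein; higher means less MgrA bound to DNA so lower polarization.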 To be noted: hits give high values, concentration not given here. On the technique in general: Polarisation of emitted light reports the rotation of a fluorescent probe.
Usually inhibition stands for the relative decrease from the control value, in per cent. In the case of `CC(=O)OC1(C#N)CN2CCC1CC2` (centres undefined), the inhibition was inactive: -1.75%. For the compound `C/C1=C2N=C(/C=C3N=C(/C(C)=C4\[N-][C@@](C)([C@@H]5N=C1[C@](C)(CCC(=O)NC[C@@H](C)OP(=O)([O-])O[C@H]1[C@@H](O)[C@@H](n6cnc7cc(C)c(C)cc76)O[C@@H]1CO)[C@H]5CC(N)=O)[C@@](C)(CC(N)=O)[C@@H]4CCC(N)=O)[C@@](C)(CC(N)=O)[C@@H]\3CCC(N)=O)C(C)(C)[C@@H]/2CCC(N)=O.[C-]#N.[Co+3]`, the inhibition is inactive: -0.85%.

For `CC(=O)OC1CN2CCC1C(c1ccccc1)C2` (centres undefined), the inhibition is inactive: -3.2%. Consider `O=C(OCCN1CCN(CCOCc2ccccc2)CC1)C(O)(c1ccccc1)c1ccccc1`, for which the inhibition is inactive: -6.6%. Consider `O=P1(Nc2nc3ccc(Cl)cc3s2)COc2ccccc2O1` (centres undefined), for which the inhibition was inactive: -0.4%. To `COc1cc2c(cc1NP(C)(=O)Oc1ccccc1)oc1ccccc12` (centres undefined) belongs inactive: 1.55%; to `O=C(OC1CN2CCC1CC2)c1ccccc1` (centres undefined), inactive: -1%; to `O=C(OC1/C(=C/c2ccccc2F)N2CCC1CC2)c1ccccc1` (centres undefined), inactive: -0.8%.

On to `CN(C)C(=O)Oc1noc2ccccc12`, for which the inhibition was inactive: 0.5%. To `CN(C(=O)Cc1ccc(Cl)c(Cl)c1)[C@H]1CCCC[C@@H]1N1CCCC1` belongs inactive: 0.2%. The value for `CCOP(=Nc1nc2ccccc2n2nnnc12)(OCC)OCC` was inactive: 0.65%. To `CP(=O)(Nc1ccccn1)Oc1ccccc1` (centres undefined) belongs inactive: -1.15%. On to `CCOP(OCC)N1CCOCC1`, for which the inhibition was inactive: 7.35%. To `CP(=O)(Nc1ccc(Cl)cc1)Oc1ccc(F)cc1` (centres undefined) belongs inactive: -0.1%; to `CCc1nc2c(n1)c1c(non1O)c1c2no[n+]1[O-]`, inactive: -1.85%.

As to `OCCSCCO`, the inhibition was inactive: 0.35%. To `CP(=O)(Nc1ccc(Cl)cc1)Oc1ccccc1` (centres undefined) belongs inactive: -1.05%; to `COc1ccccc1OP(C)(=O)Nc1ccccc1` (centres undefined), inactive: -3.6%. To `O=C(O)CCC(=O)N=S(c1ccccc1)c1ccccc1.O=[N+]([O-])c1cc([N+](=O)[O-])c(O)c([N+](=O)[O-])c1` belongs inactive: -1.05%; to `CCn1cccc/c1=N\P1(=S)OCCO1`, inactive: -0.75%; to `CN(C)P1(=O)Nc2ccccc2S1` (centres undefined), inactive: 5.65%. The value for `O=C(OC1CN2CCC1CC2)C12CC3CC(CC(C3)C1)C2` (centres undefined) was inactive: 0.35%; that for `Cc1cc(C)cc(OP(C)(=O)NCc2ccccc2)c1` (centres undefined) was inactive: 0.75%; that for `Nc1nonc1OCCOc1nonc1N` was inactive: 1.45%. `CC1=Nc2ccc(C(F)(F)F)cc2C1(C)C`: the inhibition was inactive: 0.45%. To `NC(=O)Nc1ccc([As](=O)(O)O)cc1` belongs inactive: 1.7%; to `CC1(C)Nc2ccccc2OP1(=O)c1ccccc1` (centres undefined), inactive: -3.3%; to `O=C(OC1CN2CCC1CC2)c1ccc(Cl)cc1` (centres undefined), inactive: -2%. Turning to `Cc1cccc(OCC(=O)OC2CN3CCC2CC3)c1` (centres undefined), the inhibition is inactive: -0.65%. To `COc1cc(-n2cnnn2)ccc1-n1cnnn1` belongs inactive: 2.95%. In the case of `O=P1(Nc2ccccn2)COc2ccccc2OC1`, the inhibition is inactive: 1.6%. The value for `Cc1cc(C)cc(OP(C)(=O)Nc2ccc(OC(C)C)cc2)c1` (centres undefined) was inactive: 0.8%; that for `CC1(C)COP(=S)(N(C2=NCCC2)c2ccccc2)OC1` was inactive: 2.7%.

Consider `Cc1ccc(C(=O)OC2CN3CCC2CC3)cc1` (centres undefined), for which the inhibition was inactive: -1.3%.
